Results of unrelated studies side by side (data: NIAID ChemDB).

Common to all: tests on isolated targets

Conditions beyond the fields shown may differ between rows. Percent inhibition refers to the dose given; in toxicity tests it is the harm to the cells. Blank or dashed fields: not listed here. a–b is a range or a potency band. ICn: concentration for n% inhibition.

structure | measure | protein | read by | dose | strain or isolate | agent | result
O=C(O)/C=C/c1ccc(NC(=O)C2(NC(=O)c3ccc4c(c3)nc(-c3ccc[nH]3)n4C3C[C@H]4CC[C@@H]3C4)CCCC2)cc1 | IC50 | NS5B polymerase |  |  |  | Hepatitis C virus | 0.5–5 µM
FC(F)(F)Oc1cccc(COc2ccc(-c3cnc4c(-c5nn[nH]n5)cnn4c3C3CCCCC3)cc2)c1 | IC50 | RNA-dependent RNA polymerase |  |  |  | Hepatitis C virus | 1–10 µM
C/C(=C\c1ccc(NC(=O)C2(NC(=O)c3ccc4c(c3)nc(-c3ccoc3)n4C3CCCCC3)CCCC2)cc1)C(=O)O | IC50 | NS5B polymerase |  |  |  | Hepatitis C virus | <0.5 µM
COCCNC(=O)c1ccc(C(=O)N2CCN(c3ncccc3NCC(C)C)CC2)nc1 | IC50 | Reverse transcriptase |  |  |  | Hepatitis B virus | 0.007 µg/mL
O=C(N[C@H](Cc1c[nH]c2ccccc12)C(=O)O)c1cnn2c(C3CCCCC3)c(-c3ccc(F)cc3)cnc12 | IC50 | RNA-dependent RNA polymerase |  |  |  | Hepatitis C virus | <1 µM
O=C(O)c1nc(-c2ccccc2NS(=O)(=O)c2ccc(F)c(Cl)c2)[nH]c(=O)c1O | IC50 | HCV polymerase |  |  |  | Hepatitis C virus | <100 µM
CSc1ncc(C(=O)N(C)C)c(Nc2ccc3[nH]ncc3c2)n1 | IC50 | Reverse transcription |  |  |  | Hepatitis B virus | <0.1 µg/mL
O=C(NCc1csc2ccccc12)Nc1ccsc1-c1nc(C(=O)O)c(O)c(=O)[nH]1 | IC50 | HCV polymerase |  |  |  | Hepatitis C virus | <25 µM
O=c1c(O[C@@H]2OC[C@H](O)[C@H](O)[C@H]2O)c(-c2ccc(O)c(O)c2)oc2cc(O)cc(O)c12 | inhibition | Nonstructural protein 3 protease |  | 100 µM |  | Hepatitis C virus | 50.1%
COc1cc(F)cc(-c2cc(-c3ccc(C(F)(F)F)cc3)nc3cc(C(=O)O)nn23)c1 | IC50 | RNA-dependent RNA polymerase |  |  |  | Hepatitis C virus | >10 µM
O=C(Nc1ccsc1-c1nc(C(=O)O)c(O)c(=O)[nH]1)c1ccccc1 | IC50 | HCV polymerase |  |  |  | Hepatitis C virus | <25 µM
COc1ccc(-c2cnc3c(C(=O)O)cnn3c2C2CCCCC2)cc1OC | IC50 | RNA-dependent RNA polymerase |  |  |  | Hepatitis C virus | >10 µM
CC[C@H](CO)NC(=O)c1cnc(SC)nc1Nc1ccc2cn[nH]c2c1 | IC50 | Reverse transcription |  |  |  | Hepatitis B virus | <0.1 µg/mL
COc1ccc(CNC(=O)c2nc3ccccc3c(=O)n2O)cc1 | IC50 | NS5B | fluorescence |  | 1b | Hepatitis C virus | 13.9 µM
CC[C@H](CO)NC(=O)c1cnc(SC)nc1Nc1ccc2[nH]ncc2c1 | IC50 | Reverse transcription |  |  |  | Hepatitis B virus | <0.1 µg/mL
CCCCCCCCCCCCCC1=C(O)C(=O)C=C(OC)C1=O | inhibition | Nonstructural protein 3 protease |  | 100 µM |  | Hepatitis C virus | 77.9%
O=C(NCCCc1ccccc1)c1nc2ccccc2c(=O)n1O | IC50 | NS5B | fluorescence |  | 1b | Hepatitis C virus | 8.8 µM
CSc1ncc(C(=O)NC2CC2)c(Nc2ccc3cn[nH]c3c2)n1 | IC50 | Reverse transcription |  |  |  | Hepatitis B virus | <1 µg/mL
O=C(NCCc1ccccc1)c1nc2ccccc2c(=O)n1O | IC50 | NS5B | fluorescence |  | 1b | Hepatitis C virus | 46.1 µM
O=C(O)c1nc(-c2cccc(CS(=O)(=O)c3ccccn3)c2)[nH]c(=O)c1O | IC50 | HCV polymerase |  |  |  | Hepatitis C virus | <100 µM
CC(C)(NC(=O)c1ccc2c(c1)nc(-c1ccoc1)n2C1CCCCC1)C(=O)Nc1ccc(-c2csc(C(=O)O)n2)cc1 | IC50 | NS5B polymerase |  |  |  | Hepatitis C virus | <0.5 µM
CSc1ncc(C(=O)N2CCN(CCO)CC2)c(Nc2ccc3[nH]ncc3c2)n1 | IC50 | Reverse transcription |  |  |  | Hepatitis B virus | ~1 µg/mL
O=C(NCc1ccc(Cl)cc1)c1nc2ccccc2c(=O)n1O | IC50 | NS5B | fluorescence |  | 1b | Hepatitis C virus | 44.5 µM
CSc1ncc(C(=O)NCCN(C)C)c(Nc2ccc3cn[nH]c3c2)n1 | IC50 | Reverse transcription |  |  |  | Hepatitis B virus | <0.01 µg/mL
CCOC(=O)c1sc2ccc(NC(=O)C3(NC(=O)c4ccc5c(c4)nc(-c4ccoc4)n5C4CCCCC4)CCCC3)cc2c1C | IC50 | NS5B polymerase |  |  |  | Hepatitis C virus | 0.5–5 µM
O=C(COc1ccccc1)Nc1ccsc1-c1nc(C(=O)O)c(O)c(=O)[nH]1 | IC50 | HCV polymerase |  |  |  | Hepatitis C virus | <25 µM
CN1CCC(NC(=O)c2ccc3c(c2)nc(-c2ccoc2)n3C2CCCCC2)(C(=O)Nc2ccc3c(c2)cc(C(=O)O)n3C)CC1 | IC50 | NS5B polymerase |  |  |  | Hepatitis C virus | <0.5 µM
O=C(NCc1ccccc1Cl)c1nc2ccccc2c(=O)n1O | IC50 | NS5B | fluorescence |  | 1b | Hepatitis C virus | 32.8 µM
CCOC(=O)c1cnn2c(-c3ccc(Cl)cc3)cc(-c3ccccc3)nc12 | IC50 | RNA-dependent RNA polymerase |  |  |  | Hepatitis C virus | >10 µM
O=C(O)/C=C/c1ccc(NC(=O)C2(NC(=O)c3ccc4c(c3)nc(-c3ccoc3)n4C3C[C@H]4CC[C@@H]3C4)CCCC2)cc1 | IC50 | NS5B polymerase |  |  |  | Hepatitis C virus | <0.5 µM
CC(C)CNc1cccnc1N1CCN(C(=O)c2ccc(C(=O)NCCO)cn2)CC1 | IC50 | Reverse transcriptase |  |  |  | Hepatitis B virus | 0.009 µg/mL
COc1cc(/C=N/Nc2cc(C)nc3c(OC)cccc23)cc(OC)c1OC | IC50 | Nonstructural protein 3 protease |  |  |  | Hepatitis C virus | <100 µg/mL
O=C(NCc1ccc(F)cc1)c1nc2ccccc2c(=O)n1O | IC50 | NS5B | fluorescence |  | 1b | Hepatitis C virus | >50 µM
CSc1ncc(C(=O)NCc2cccnc2)c(Nc2ccc3cn[nH]c3c2)n1 | IC50 | Reverse transcription |  |  |  | Hepatitis B virus | <0.01 µg/mL
O=C(NCc1cc(Cl)cc(Cl)c1)Nc1cscc1-c1nc(C(=O)O)c(O)c(=O)[nH]1 | IC50 | HCV polymerase |  |  |  | Hepatitis C virus | <25 µM
CC(NC(=O)c1ccc2c(c1)nc(-c1ccoc1)n2C1CCCCC1)C(=O)Nc1cccc(/C=C/C(=O)O)c1 | IC50 | NS5B polymerase |  |  |  | Hepatitis C virus | 0.5–5 µM
COCCCNC(=O)c1ccc(C(=O)N2CCN(c3ncccc3NC(C)C)CC2)nc1 | IC50 | Reverse transcriptase |  |  |  | Hepatitis B virus | 0.13 µg/mL
CC(C)(C)c1ccc(/C=C2\Oc3cccc(O)c3C2=O)cc1 | inhibition | HCV NS5B delta21 | FRET | 20 µM | J4 genotype 1B | Hepatitis C virus | 61%
CC(C)Nc1cccnc1N1CCN(C(=O)c2ccc(C(=O)NCc3ccccn3)cn2)CC1 | IC50 | Reverse transcriptase |  |  |  | Hepatitis B virus | 0.007 µg/mL
O=C(Nc1ccsc1-c1nc(C(=O)O)c(O)c(=O)[nH]1)OCc1cc(Cl)ccc1Cl | IC50 | HCV polymerase |  |  |  | Hepatitis C virus | <25 µM
O=C1/C(=C/c2ccccc2O)Oc2cccc(O)c21 | IC50 | HCV NS5B delta21 | FRET |  | J4 genotype 1B | Hepatitis C virus | 11.1 µM
CSc1ncc(C(=O)NCCc2ccccn2)c(Nc2ccc3[nH]ncc3c2)n1 | IC50 | Reverse transcription |  |  |  | Hepatitis B virus | ~0.01 µg/mL
C[C@@H]1CCCC[C@H]1n1c(-c2ccc[nH]2)nc2cc(C(=O)NC3(C(=O)Nc4ccc(/C=C/C(=O)O)cc4)CCCC3)ccc21 | IC50 | NS5B polymerase |  |  |  | Hepatitis C virus | 0.5–5 µM
CSc1ncc(C(=O)NCc2cccnc2)c(Nc2ccc3[nH]ncc3c2)n1 | IC50 | Reverse transcription |  |  |  | Hepatitis B virus | <0.01 µg/mL
O=C(NCc1ccccc1)Nc1ccsc1-c1nc(C(=O)O)c(O)c(=O)[nH]1 | IC50 | HCV polymerase |  |  |  | Hepatitis C virus | <25 µM
CCNc1cccnc1N1CCN(C(=O)c2ccc(C(=O)NCCOC)cn2)CC1 | IC50 | Reverse transcriptase |  |  |  | Hepatitis B virus | 0.049 µg/mL

The first 6 rows once more:

structure,measure,protein,read by,dose,strain or isolate,agent,result
O=C(O)/C=C/c1ccc(NC(=O)C2(NC(=O)c3ccc4c(c3)nc(-c3ccc[nH]3)n4C3C[C@H]4CC[C@@H]3C4)CCCC2)cc1,IC50,NS5B polymerase,,,,Hepatitis C virus,0.5–5 µM
FC(F)(F)Oc1cccc(COc2ccc(-c3cnc4c(-c5nn[nH]n5)cnn4c3C3CCCCC3)cc2)c1,IC50,RNA-dependent RNA polymerase,,,,Hepatitis C virus,1–10 µM
C/C(=C\c1ccc(NC(=O)C2(NC(=O)c3ccc4c(c3)nc(-c3ccoc3)n4C3CCCCC3)CCCC2)cc1)C(=O)O,IC50,NS5B polymerase,,,,Hepatitis C virus,<0.5 µM
COCCNC(=O)c1ccc(C(=O)N2CCN(c3ncccc3NCC(C)C)CC2)nc1,IC50,Reverse transcriptase,,,,Hepatitis B virus,0.007 µg/mL
O=C(N[C@H](Cc1c[nH]c2ccccc12)C(=O)O)c1cnn2c(C3CCCCC3)c(-c3ccc(F)cc3)cnc12,IC50,RNA-dependent RNA polymerase,,,,Hepatitis C virus,<1 µM
O=C(O)c1nc(-c2ccccc2NS(=O)(=O)c2ccc(F)c(Cl)c2)[nH]c(=O)c1O,IC50,HCV polymerase,,,,Hepatitis C virus,<100 µM